Anti-infective test results gathered from many reports (values: NIAID ChemDB through PubChem).

Common to all: tests in culture; organism: HIV-1; method: p24; read-out: EC90

An empty or dashed field is not shown.

SMILES	cell line	strain or isolate	changes	value
CC(C)(C)NC(=O)[C@@H]1C[C@@H]2CCCC[C@@H]2CN1C[C@@H](O)[C@H](Cc1ccccc1)NC(=O)[C@H](CC(N)=O)NC(=O)c1ccc2ccccc2n1	PBMC	BR97 (PR L10I K20R M36I/V P63L/S L90M)	PR-L10I K20R M36I/V P63L/S L90M	0.033 µM
CC(C)(C)NC(=O)[C@@H]1C[C@@H]2CCCC[C@@H]2CN1C[C@@H](O)[C@H](Cc1ccccc1)NC(=O)[C@H](CC(N)=O)NC(=O)c1ccc2ccccc2n1	MT-4	NL4-3-P28 (PR M46I I84V)	PR-M46I I84V	0.16 µM
O=c1[nH]cnc2c1ncn2[C@H]1CC[C@@H](CO)O1	PBMC	IIIB		2.9 µM
CC(C)CN(C[C@@H](O)[C@H](Cc1ccccc1)NC(=O)O[C@H]1CCOC1)S(=O)(=O)c1ccc(N)cc1	PBMC	HXB2	PR-L10R M46I L63P V82T I84V	0.55 µM
CCN(c1ncccc1NC(C)(C)C)C1CCN(C(=O)c2cc3cc(NS(C)(=O)=O)ccc3[nH]2)CC1	PBMC	Isolate 410		1.1 µM
O=c1[nH]cnc2c1ncn2[C@H]1CC[C@@H](CO)O1	PBMC	XM-AZT-resistant	RT-M41L D67N K70R T215Y K219Q	8.5 µM
CCC[C@@]1(CCc2ccccc2)CC(O)=C([C@H](CC)c2cccc(NS(=O)(=O)c3ccc(C(F)(F)F)cn3)c2)C(=O)O1	PBMC	477 clinical isolates delavirdine-resistant		0.04 µM
Cc1cn([C@H]2C[C@H](N=[N+]=[N-])[C@@H](CO)O2)c(=O)[nH]c1=O	PBMC	Isolate 472		1.4 µM
Cc1c(O)cccc1C(=O)N[C@@H](CSc1ccccc1)[C@H](O)CN1C[C@H]2CCCC[C@H]2C[C@H]1C(=O)NC(C)(C)C	PBMC	HXB2	PR-L10R M46I L63P V82T I84V	0.25 µM
CC(=O)c1ccccc1NC(C(N)=O)c1c(Cl)cccc1Cl	MT-4	DLV-resistant IIIB (RT-L100I)	RT-L100I	6.5 µM
CC(C)Nc1cccnc1N1CCN(C(=O)c2cc3cc(NS(C)(=O)=O)ccc3[nH]2)CC1	PBMC	477 clinical isolates delavirdine-resistant		6.7 µM
CC(C)Nc1cccnc1N1CCN(C(=O)c2cc3cc(NS(C)(=O)=O)ccc3[nH]2)CC1	PBMC	JR-CSF		0.0393 µM
Cc1cn([C@H]2C[C@H](N=[N+]=[N-])[C@@H](CO)O2)c(=O)[nH]c1=O	PBMC	IIIB		0.04 µM
Cc1cn([C@H]2C[C@H](N=[N+]=[N-])[C@@H](CO)O2)c(=O)[nH]c1=O	MT-4	XM-Q151M	RT-A62V V75I F77C F116Y Q151M	121 µM

Repeating the first 2 entries:

SMILES,cell line,strain or isolate,changes,value
CC(C)(C)NC(=O)[C@@H]1C[C@@H]2CCCC[C@@H]2CN1C[C@@H](O)[C@H](Cc1ccccc1)NC(=O)[C@H](CC(N)=O)NC(=O)c1ccc2ccccc2n1,PBMC,BR97 (PR L10I K20R M36I/V P63L/S L90M),PR-L10I K20R M36I/V P63L/S L90M,0.033 µM
CC(C)(C)NC(=O)[C@@H]1C[C@@H]2CCCC[C@@H]2CN1C[C@@H](O)[C@H](Cc1ccccc1)NC(=O)[C@H](CC(N)=O)NC(=O)c1ccc2ccccc2n1,MT-4,NL4-3-P28 (PR M46I I84V),PR-M46I I84V,0.16 µM

ECn: concentration that inhibits the pathogen or its effect by n%. Lines come from different laboratories, so protocols vary.